In the supplement of paper PMC9931576:
Human monoclonal antibodies against the spike receptor-binding domain (heavy:light variable regions). IC50 against pseudoviruses bearing the spike of naturally observed variants; lower = stronger; >10 µg/ml means not reached at the top dose. No active / inactive call. The stated detection limit is 0.0005 µg/ml; values near or below 0.001 µg/ml lie at the floor of the assay.

B1: BD55-6017 (protein)
chain 1: QLLESGGGLVQPGGSLRLSCAASGFIFRRYAMNWVRQAPGKGLEWVSTISGSGDDTYYADSVKGRFTMSRDNSKNRLFLQMNSLRAQDTAVYYCAKSIAAAGYDAFDIWGQGTMVTVSS
chain 2: AIQLTQSPSSLSASVRDRVTITCRASQGISNTLAWFQQKPGKPPKLLIYDASTLDSGVPSRFSGSGSGTDFTLTINSLQPEDFATYYCQQFNDYPLTFGGGTKVEF
B2: BD55-6037 (protein)
chain 1: EVQLVESGGGLVQPGGSLRLSCAASGFTFSNYAMHWVRQAPGKGLEYVSAITSNGDGTFYASSVEGRFTISRDNSKNTLYLQMGSLRAEDMAVYYCAREGTADVLLYFDYWGQGTLVTVSS
chain 2: DIQMTQSPSSMSAFVGDRVTITCRAGQSINRFLNWYQQKPGKAPKLLIYAASSLQSGVPSRFSGSGSGTDFTLTISGLQPEDFATYYCQQSYITPFYTFGQGTKLEMK
B3: BD55-6040 (protein)
chain 1: EVQLLESGGRLVQPGGSLRLSCAASGFTFSSSVMSWVRQAPGKRLQWVSGIYGSGENTYYADSVKGRFTISSDNSKNTLYLQMNSLRVEDTAVYYCAKDLGFCGGDCYRWSGVAFDNWGQGTMVTVSA
chain 2: DIQMTQSPSSLSASVGDRVTITCRASQSINIYLNWYQKKPGKAPKLLIYAALSLQSGVPSRFSGSGSGTEFTLTISGLQPEDFATYYCQQSYSTPLTFGGGTKVEIK
B4: BD55-6051 (protein)
chain 1: QVQLGQSGAEVKKPGASVKVSCKASGYTFPSYGITWVRQAPGQGLEWMGWIGDSNGNTYYAQKFQGRATMTTDTSTSTAYMELRGLRSDDTAVYYCARDRAYSGYDYLDHYYGMDVWGQGTTVTVSS
chain 2: EIALTQSPATLSLSPGERATLSCRASQSISSHLAWYQQKPGQAPRLLIYDASNRATGIPARFSGSGSGTDFTLTISSLEPEDFAVYYCQQRSKWPPYTFGQGTKLEIK
B5: BD55-6064 (protein)
chain 1: QVQLVQSGAEVKKPGASVKVSCQASGYTFTNYYIHWVRQAPGHGLEWMGVINPSDDNTRYAQKFQGRVTLTWDTSTSTVYMELSSLRSEDTAVYYCAREERNYDLLTHYYHYGMDVWGQGSTVTVSS
chain 2: DIQMTQSPSSLSASVGDRVTITCRASQSISSYLNWYQQKPGKAPELLIYAASSLQSGVPSRFSGSESGTEFTLTISSLQREDFATYYCQQSYITPLTFGQGTKVEI
B6: BD55-6019 (protein)
chain 1: QVQLQESGPGLLKPSETLSLICTVSGGSIGSISYYWGWIRQPPGKALEWIGNIHYSENTYNNPSLKSRVTISKDTSKNQLSLKLSAVTAADTAMYYCARGGYSGYFDVWGQGTLVSVSS
chain 2: DIQMTQSPSTLSASVGDRVTITCRASQNINVWLAWYQQKPGRAPNLLIYKASSVESGVPSRFSGSGSGTEFTLTISSLQPDDFATYYCQHYNDDSVTFGQGTKLEIK
B7: BD55-6028 (protein)
chain 1: VHLVESGGGLVKPGGSLRLSCAASGFTLSTYSMNWVRQAPGKGLEWVSSISSSSSLMFYADSVKGRFTISRDNAKNSLYLQMNSLRADDTAVYYCARELSSTMTADFDLWGQGTLVTVSS
chain 2: DIQMTQSPSSLSASVGDRVTITCRASQSISTYLNWYQHKPGKAPTLLIYAASTLQSGVPSRFSGSGSGTAFTLTISSLQPEDFATYYCQQSYITPQVTFGGGTKVEIK
B8: BD55-6061 (protein)
chain 1: QVHLQESGPGLVKPSETLSLTCTVSGVSIVNSYWSWLRQPPGKGLEWVGYAYYSGDTNYNPSLKTRVSMSVDTSKKQFSLKLTSVTAADTAVYYCARHTPFCGGDCYPNFFYGMDVWGQGTTVTVSS
chain 2: DIQMTQSPSTLSASVGDRVTITCRASQTIGRWSAWYQQKPGTAPKLLISEASHLEGGVPSRFSGSGSGTEFTLTINSLQPDDFATYYCQQYSDFPWTFGRGTKVEIK
B9: BD55-6053 (protein)
chain 1: EVQLVESGGGLVKTGGSLRLSCAASGFTFSTYSMNWVRQAPGKGLEWVSYISSSSSTIYYADSVKGRFTISRDNAKNLLYLQMNSLRDEDTAVYYCARWEGDYDLLTGYWGHFHYYGMDVWGQGTTVTVSS
chain 2: DIVMTQSPGSLAVSLGERATINCKSSQSVLYSPYNKDYLAWYQQKPGQPPKLLIYWASTRESGVPDRFSGSGSGTDFTLTISSLQAEDVAVYYCQQYYSIPLTFGGGTKVEIK
B10: BD55-6035 (protein)
chain 1: EVQLVESGGGLVQPGGSLRLSCAASGFTFSRYWMTWVRQAPGKGLEWVANIKQDGTEKYYGDSVKGRFTISRDNAKNSLSLQMNSLRADDTAVYYCAGAPVSYDILAPEWFDPWGQGTLVTVSS
chain 2: SYELTQPPSVSVSPGQTARITCSGDRLPTQYTCWYQQKPGQAPVLIIYKDTKRPSGIPERFSGSTSGTRATLTISGVQAEDEADYYCQTADSVLWVFGGGTKLTVL
B11: BD55-6055 (protein)
chain 1: EVQLVESGGGLVKPGGSLRLSCAASGFTFSTFSMTWVRQPPGKGLEWVSSISRNSGLIFYADSVKGRFTVSRDNVKNSLHLQLSSLRAEDTAVYYCTREGSGQVAPLDYWGQGILVTVSS
chain 2: DIHMTQSPSSLSASVGDRVTITCRASQAIRNSLAWYQQKPGKAPKLLVYAASTLQSGVPPRFSGSGSGTDYTLTISSLQPEDFATYFCQQYYVTPQVTFGGGTKVEIK
B12: BD55-6014 (protein)
chain 1: QVQVVQSAAEVKKPGASVKVSCKASGYTFSNYGISWVRQAPGQGLEWMGWISIYNGDTKYSQKFSGRVAMTTDTSTNTAYLELRSLRFDDTAVYYCARDVRPGYSGYDFLEEPFDHWGQGTLVTVSS
chain 2: QSVLTQPPSASGTPGQRVTISCSGSSSNIGSNPVNWYQQFPGTAPKLLIYSNNQRPSGVPDRFAGSKSGASASLAISGLQSEDEADYYCAAWDDSLNGNWVFGGGTKLTVL

Each binder was assayed against SARS-CoV-2 Omicron BA.1 spike pseudovirus (assay: pseudovirus neutralization IC50; higher = weaker neutralization).
Experimental: (§1)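 Single-round VSV luciferase pseudovirus mixed with antibody dilutions for 1 h and put on Huh-7 cells for about a day; IC50 from the dose curve.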

Binder	pseudovirus neutralization IC50
B1	> 10 µg/mL
B2	> 10 µg/mL
B3	> 10 µg/mL
B4	> 10 µg/mL
B5	> 10 µg/mL
B6	> 10 µg/mL
B7	> 10 µg/mL
B8	> 10 µg/mL
B9	> 10 µg/mL
B10	> 10 µg/mL
B11	> 10 µg/mL
B12	> 10 µg/mL

What follows are binders tested against SARS-CoV-2 Omicron BA.2 spike pseudovirus in the same assay as above.
Experimental: as §1

Binder	pseudovirus neutralization IC50
B1	> 10 µg/mL
B2	> 10 µg/mL
B3	> 10 µg/mL
B4	> 10 µg/mL
B5	> 10 µg/mL
B6	> 10 µg/mL
B7	> 10 µg/mL
B8	> 10 µg/mL
B9	> 10 µg/mL
B10	> 10 µg/mL
B11	> 10 µg/mL
B12	> 10 µg/mL

The binders below were run against SARS-CoV-2 Omicron BA.2.75 spike pseudovirus in the same assay as above.
Experimental: as §1

Binder	pseudovirus neutralization IC50
B1	> 10 µg/mL
B2	> 10 µg/mL
B3	> 10 µg/mL
B4	> 10 µg/mL
B5	> 10 µg/mL
B6	> 10 µg/mL
B7	> 10 µg/mL
B8	> 10 µg/mL
B9	> 10 µg/mL
B10	> 10 µg/mL
B11	> 10 µg/mL
B12	> 10 µg/mL

Each binder was assayed against SARS-CoV-2 Omicron BA.5 spike pseudovirus in the same assay as above.
Experimental: as §1

Binder	pseudovirus neutralization IC50
B1	> 10 µg/mL
B2	> 10 µg/mL
B3	> 10 µg/mL
B4	> 10 µg/mL
B5	> 10 µg/mL
B6	> 10 µg/mL
B7	> 10 µg/mL
B8	> 10 µg/mL
B9	> 10 µg/mL
B10	> 10 µg/mL
B11	> 10 µg/mL
B12	> 10 µg/mL

Each binder was assayed against SARS-CoV-2 Omicron BQ.1.1 spike pseudovirus in the same assay as above.
Experimental: as §1

Binder	pseudovirus neutralization IC50
B1	> 10 µg/mL
B2	> 10 µg/mL
B3	> 10 µg/mL
B4	> 10 µg/mL
B5	> 10 µg/mL
B6	> 10 µg/mL
B7	> 10 µg/mL
B8	> 10 µg/mL
B9	> 10 µg/mL
B10	> 10 µg/mL
B11	> 10 µg/mL
B12	> 10 µg/mL

The binders below were run against SARS-CoV-2 Omicron XBB spike pseudovirus in the same assay as above.
Experimental: as §1

Binder	pseudovirus neutralization IC50
B1	> 10 µg/mL
B2	> 10 µg/mL
B3	> 10 µg/mL
B4	> 10 µg/mL
B5	> 10 µg/mL
B6	> 10 µg/mL
B7	> 10 µg/mL
B8	> 10 µg/mL
B9	> 10 µg/mL
B10	> 10 µg/mL
B11	> 10 µg/mL
B12	> 10 µg/mL

The binders below were run against SARS-CoV-2 early D614G spike pseudovirus in the same assay as above.
Experimental: as §1

Binder	pseudovirus neutralization IC50
B1	> 10 µg/mL
B2	> 10 µg/mL
B3	> 10 µg/mL
B4	> 10 µg/mL
B5	> 10 µg/mL
B6	> 10 µg/mL
B7	> 10 µg/mL
B8	> 10 µg/mL
B9	> 10 µg/mL
B10	> 10 µg/mL
B11	> 10 µg/mL
B12	> 10 µg/mL
